We go through 2 compounds from ChEMBL document CHEMBL6134870 (J Med Chem, 2025).

Sequences of proteins named here, by UniProt entry; tags and fusion partners are left off.
UniProt P0DPI0, whole entry, looked up: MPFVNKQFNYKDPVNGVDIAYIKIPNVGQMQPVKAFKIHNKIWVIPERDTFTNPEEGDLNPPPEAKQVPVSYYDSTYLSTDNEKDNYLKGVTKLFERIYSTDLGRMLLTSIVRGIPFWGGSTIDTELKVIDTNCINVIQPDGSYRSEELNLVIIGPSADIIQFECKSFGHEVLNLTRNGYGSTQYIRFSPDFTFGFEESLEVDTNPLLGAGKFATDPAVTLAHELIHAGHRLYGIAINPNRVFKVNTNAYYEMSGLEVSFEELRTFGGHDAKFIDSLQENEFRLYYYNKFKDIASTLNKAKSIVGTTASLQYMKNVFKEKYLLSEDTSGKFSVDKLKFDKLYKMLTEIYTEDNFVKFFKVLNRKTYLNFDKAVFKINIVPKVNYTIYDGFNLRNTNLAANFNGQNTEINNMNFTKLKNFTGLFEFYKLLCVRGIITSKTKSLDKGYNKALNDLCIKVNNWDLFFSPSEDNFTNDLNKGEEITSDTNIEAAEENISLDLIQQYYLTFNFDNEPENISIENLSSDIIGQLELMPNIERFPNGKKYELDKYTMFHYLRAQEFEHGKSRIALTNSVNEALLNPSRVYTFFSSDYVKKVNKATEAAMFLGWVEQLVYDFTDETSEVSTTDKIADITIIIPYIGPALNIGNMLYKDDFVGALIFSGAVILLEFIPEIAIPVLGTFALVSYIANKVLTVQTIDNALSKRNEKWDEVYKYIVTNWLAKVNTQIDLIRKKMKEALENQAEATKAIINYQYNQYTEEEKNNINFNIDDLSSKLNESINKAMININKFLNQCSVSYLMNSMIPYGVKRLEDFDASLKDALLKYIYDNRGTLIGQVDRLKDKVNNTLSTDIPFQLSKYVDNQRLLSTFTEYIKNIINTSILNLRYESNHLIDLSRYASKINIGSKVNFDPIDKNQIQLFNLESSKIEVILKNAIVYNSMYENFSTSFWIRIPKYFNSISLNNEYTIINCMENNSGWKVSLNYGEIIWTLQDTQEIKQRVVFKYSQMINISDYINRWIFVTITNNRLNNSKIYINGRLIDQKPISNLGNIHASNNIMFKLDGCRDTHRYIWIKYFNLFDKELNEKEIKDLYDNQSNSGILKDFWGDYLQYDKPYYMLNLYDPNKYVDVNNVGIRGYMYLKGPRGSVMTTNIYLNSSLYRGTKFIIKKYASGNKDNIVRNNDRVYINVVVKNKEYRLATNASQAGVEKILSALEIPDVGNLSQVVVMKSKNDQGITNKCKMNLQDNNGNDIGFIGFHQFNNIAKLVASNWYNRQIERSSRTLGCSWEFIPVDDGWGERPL

Assay [1] deals with Botulinum neurotoxin type A (Clostridium botulinum) (UniProt P0DPI0). The assay is described as follows: Competitive inhibition of Botulinum neurotoxins A assessed as interaction factor alpha in presence of DCHA.
For assay [2] the target is unchanged. The assay is described as follows: Covalent inhibition of Botulinum neurotoxins A light chain assessed as dissociation constant for GSH.

Molecules are shown by their SMILES.

Turning to `S=C1Cc2cc(Br)ccc2N1`, the Activity in assay [1] stood at 25. On to `NC(=O)CI`, for which the K in assay [2] was 0.167 M⁻¹ s⁻¹.
